# Assay results published in PMC4851402, “Validation of N-myristoyltransferase as Potential Chemotherapeutic Target in Mammal-Dwelling Stages of Trypanosoma cruzi” (PLoS Neglected Tropical Diseases, 2016).
# Where “and” joins values, the source holds several entries; their conditions need not be identical. Equal entries are not always repeated.
# Test system: T. cruzi intracellular amastigote proliferation
# Assay: In vitro T. cruzi intracellular proliferation assay in infected U2OS cells, high-content imaging
# Assay type: cell-based, Trypanosoma cruzi (Y strain)
# Conditions: selectivity index, U2OS cells vs T. cruzi proliferation assay
# Method: DMSO control wells contained 30 μL 6% DMSO. Human […] (U2OS cells) were diluted in DMEM, 10% heat inactivated-fetal bovine serum (HI-FBS) to give a cell density of 2 x 10^5 cells/mL. T. cruzi trypomastigotes were resuspended in DMEM, 10% HI-FBS to a final density of 1.2 x 10^7. Cells and parasites were mixed a ratio of 4 volumes of cells plus 1 volume of parasites. 150 μL of the mixture were dispensed per well. Plates were incubated for 48 h. After the incubation period, media was removed from the wells and 100 μL 4% paraformaldehyde (PFA) were added. After 15 min of incubation at room temperature, PFA was removed and cells and parasites were stained with Draq5 (BioStatus, Leicestershire, UK) at a concentration of 5 μM diluted in PBS. The plates were then read in a bioimager system as described below. Three independent experiments were performed in triplicate wells.
# Filter sets appropriate for the excitation and emission spectra of Draq5 were utilized. Images from four fields (2 x 2 montage) were acquired per well with a 20x objective. To perform the host cell segmentation and counting of parasites, the BD AttoVision v1.6.2 Sub Object analysis was used. Draq5 creates a background, staining the host cell and parasite nucleus, but defining the cytoplasm as well, determining this way the amount of parasites within each mammalian cell. The host cell nucleus was excluded by size difference. Raw data was imported into the BD Image Data Explorer (BD Biosciences) to determine the percentage of infected cells containing at least 1, at least 3 or at least 5 intracellular parasites.
# EC50 were determined from three independent experiments.
row,SMILES,T. cruzi proliferation assay S.I.
1,Cc1nn(C)c(C)c1N(CC(F)(F)F)S(=O)(=O)c1c(Cl)cc(CCCC2CCN(C)CC2)cc1Cl [Compound 7],13.8
2,Cc1nn(C)c(Cl)c1NS(=O)(=O)c1c(Cl)cc(-c2ccnc(N3CCNCC3)c2)cc1Cl [Compound 2],> 43.9
3,Cc1nn(C)c(C)c1N(C(F)F)S(=O)(=O)c1c(Cl)cc(CCCC2CCN(C)CC2)cc1Cl [Compound 5],44 and 43.8
4,Cc1c(NS(=O)(=O)c2ccc(-c3cccc(CN(C)C)c3)cc2)c(CC(C)C)nn1C [Compound 6],> 51 and > 50.5
5,Cc1c(NS(=O)(=O)c2ccc(CCCC3CCN(C)CC3)cc2)c(CC(C)C)nn1C [Compound 4],> 93 and > 92.6
6,Cc1nn(C)c(C)c1N(C(F)F)S(=O)(=O)c1c(Cl)cc(CCCCC2CCN(C)CC2)cc1Cl [Compound 8],33 and 33.1
7,Cc1c(NS(=O)(=O)c2c(Cl)cc(-c3ccnc(N4CCNCC4)c3)cc2Cl)c(CC(C)C)nn1C [Compound 1],71 and 71.1
